Measurements taken from publication PMC6225228, “Design, Synthesis and Evaluation of N-pyrazinylbenzamides as Potential Antimycobacterial Agents” (Molecules : A Journal of Synthetic Chemistry and Natural …, 2018).

Assays:
[1] = tested on: Staphylococcus aureus CCM 4516/08; test: Antibacterial microdilution broth, SA; type: cell-based; conditions: IC50 (HepG2)/MIC (S. aureus CCM 4516/08, 24 h) in molar concentrations rounded to units
[2] = tested on: Mycobacterium tuberculosis H37Rv CNCTC My 331/88 (ATCC 27294); test: Antimycobacterial microdilution MABA, M. tuberculosis; type: cell-based; conditions: IC50 (HepG2)/MIC (Mtb) in molar concentrations rounded to units

Row | SMILES | SA SI [1] | Mtb SI [2]
1 | CC(=O)Oc1ccc(C(=O)Nc2cnc(Cl)cn2)cc1 [Compound 2d-Ac] | >510 | –
2 | O=C(Nc1cncc(Cl)n1)c1cccc(C(F)(F)F)c1 [Compound 3n, N-(6-chloropyrazin-2-yl)-3-(trifluoromethyl)benzamide] | – | >3
3 | O=C(Nc1cnc(Cl)cn1)c1ccccc1O [Compound 2b] | 10 | 3
4 | Cc1ccc(C(=O)Nc2cnc(Cl)cn2)cc1 [Compound 2h] | – | > 10
